The test has as its system Chronically infected cells (H9rf). Nature of the test: Chronically Infected Cell Assay, HIV-1 antigen ELISA. The format is cell-based. As to conditions: read-out: IC50 (Antiviral); Table 11.2; Against chronically infected cells; single assays; unit inferred.

This is a selection: effects in other tests are not listed, and their absence says nothing. A number of entries come with more than one value. The list is limited to them. An entry can have further records. Results that share an entry differ for a reason that is not stated; they may come from other doses, times, organisms or constructs than stated.

Broadly, the IC50 is the concentration at which inhibition is half-maximal.

For `O=[N+]([O-])c1cc([N+](=O)[O-])c(Cl)c([N+](=O)[O-])c1`, the IC50 is 900 nM and 2 µM.

The record behind these values is EP1016405A2, “Arylating medicaments” (Radopath Pharmaceuticals International Limited, priority 1993, dated 1994).
